# From patent publication US9815889B2, “Antibodies for prevention and treatment of diseases caused by clostridium difficile” (dated 2017)
# System: pooled sera of mice immunized with conjugate
# Assay: Deletion sequence microarray: IgG of pooled sera of immunized mice against PS-I substructures
# Settings: for IgG antibody response of sera against PS-I pentasaccharide and deletion sequences: sera of mice immunized with Alum adjuvant; for Antibody response of sera against oligoglucose substructures: any of the three groups (no adjuvant, Freund's, Alum)
SMILES,IgG antibody response of sera against PS-I pentasaccharide and deletion sequences,Antibody response of sera against oligoglucose substructures
C[C@@H]1O[C@@H](O[C@@H]2[C@@H](O)[C@H](O[C@H]3[C@H](O)[C@@H](O)[C@@H](OCCCCCN)O[C@@H]3CO)O[C@H](CO)[C@H]2O)[C@H](O)[C@H](O)[C@H]1O,lower titers,–
C[C@@H]1O[C@@H](O[C@@H]2[C@@H](O)[C@H](O[C@H]3[C@H](O[C@@H]4O[C@@H](C)[C@H](O)[C@@H](O)[C@H]4O)[C@@H](O)[C@@H](O[C@H]4[C@@H](OCCCCCN)O[C@H](CO)[C@@H](O)[C@@H]4O)O[C@@H]3CO)O[C@H](CO)[C@H]2O)[C@H](O)[C@H](O)[C@H]1O,more specific reactivity,–
NCCCCCO[C@H]1O[C@H](CO)[C@@H](O)[C@H](O)[C@H]1O[C@H]1O[C@H](CO)[C@@H](O[C@@H]2O[C@H](CO)[C@@H](O)[C@H](O)[C@H]2O)[C@H](O)[C@H]1O,–,No antibody response
NCCCCCO[C@H]1O[C@H](CO)[C@@H](O)[C@H](O)[C@H]1OC1O[C@H](CO)[C@@H](O)[C@H](O)[C@H]1O (some centres unmarked),–,No antibody response
C[C@@H]1O[C@@H](O[C@@H]2[C@@H](O)[C@H](OCCCCCN)O[C@H](CO)[C@H]2O)[C@H](O)[C@H](O)[C@H]1O,lower titers,–
